# In PubChem BioAssay AID743269 (The Scripps Research Institute Molecular Screening Center, 2014):
# The list shows a part of the results, in another mix than the full data. Some salts and complexes are drawn in separate pieces, as the source files them; their charges need not balance. Active and inactive are the calls of the source.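 How the source made its calls: active means inhibition above the screen-wide mean plus 3 SD (cut at about 13% in these data); inactive means the rest.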
# Test system: HIV-1 integrase (with human LEDGF/p75)
# Assay: blockers of LEDGF/p75-dependent integrase strand transfer – biochemical, TR-FRET, high throughput, primary screen (AID 743269);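 further: signal is the Cy5 over europium emission ratio at 671 and 618 nm; 0% = plate median of compound wells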
# Details: TR-FRET IN-LEDGF/p75 DNA integration, Eu/Cy5; at 3.7 µM; active compounds read high
row,SMILES,inhibition
1,COc1ccccc1OP(C)(=O)Nc1ccc(C)c(C)c1 (centres undefined),inactive: 2.54%
2,COc1ccc(OP(C)(=O)Nc2ccccc2Br)cc1 (centres undefined),inactive: -1.29%
3,O=C1C(O)=C([N+](=O)[O-])C(=O)C(O)=C1[N+](=O)[O-],inactive: 7.58%
4,Cc1cc(C)cc(OP(C)(=O)Nc2cccc(C(F)(F)F)c2)c1 (centres undefined),inactive: -4.25%
5,CP(=O)(OCCOc1ccccc1)OCCOc1ccccc1,inactive: 5.88%
6,CCCCCCCCCCCCCCCC1C[N+](C)(C)CCOP(C)(=O)O1 (centres undefined),inactive: -2%
7,CP(=O)(Nc1ccc(Cl)cc1Cl)Oc1ccccc1 (centres undefined),inactive: -5.01%
8,COc1ccc(OP(C)(=O)Nc2ccccn2)cc1 (centres undefined),inactive: 4.84%
9,CN(C)CCOC(=O)C(O)(c1ccccc1)C1CCCC1 (centres undefined),inactive: 1.99%
10,COc1ccccc1OP(C)(=O)Nc1ccc(Br)cc1 (centres undefined),inactive: -1%
11,CP(=O)(Nc1ccccn1)Oc1ccccc1 (centres undefined),inactive: 0.17%
12,COc1ccccc1OP(C)(=O)Nc1ccc(C)cc1C (centres undefined),inactive: -1.29%
13,CCc1ccc(OP(C)(=O)O)cc1,inactive: -4.34%
14,O=[N+]([O-])c1cc([N+](=O)[O-])c(Nc2ccccn2)c([N+](=O)[O-])c1,inactive: 2.83%
15,Cc1c(NP(C)(=O)Oc2ccc(C(C)C)cc2)c(=O)n(-c2ccccc2)n1C (centres undefined),inactive: -3.25%
16,COc1ccccc1OP(C)(=O)Nc1c(C)n(C)n(-c2ccccc2)c1=O (centres undefined),inactive: -0.76%
17,O=C(OCCCN1CCCC1)C(O)(c1ccccc1)C1CCCCC1 (centres undefined),inactive: -1.98%
18,CP(=O)(Oc1ccccc1)N1CCOC1=O (centres undefined),inactive: 0.16%
19,CCc1ccc(OP(C)(=O)Nc2cccnc2)cc1 (centres undefined),inactive: -0.89%
20,CCN(CC)CC(O)COC(=O)C(O)(c1ccccc1)C1CCCCC1 (centres undefined),inactive: 0.75%
21,COc1ccc(OP(C)(=O)Nc2ccc(Br)cc2)cc1 (centres undefined),inactive: 0.36%
22,CN(C)C(=O)c1c([N+](=O)[O-])cc([N+](=O)[O-])cc1[N+](=O)[O-],inactive: -1.08%
23,CC(C)(C)c1ccc(OP(C)(=O)O)cc1,inactive: 7.62%
24,COc1ccccc1OP(C)(=O)Nc1ccccc1Br (centres undefined),inactive: 5.22%
25,CP(=O)(Nc1ccc(Cl)cc1)Oc1ccc(F)cc1 (centres undefined),inactive: -0.2%

row,SMILES,inhibition
1,CCOC(=O)c1ccc(NP(C)(=O)Oc2ccc(Cl)cc2)cc1 (centres undefined),active: 13.8%
2,CP(=O)(OC12CC3CC(CC(C3)C1)C2)OC12CC3CC(CC(C3)C1)C2,inactive: 10.3%
3,Nc1ccc2c(ccc3cccnc32)n1.O=[N+]([O-])c1cc([N+](=O)[O-])c(O)c([N+](=O)[O-])c1,inactive: -0.82%
4,CN(C)CCOC(=O)C(O)(c1ccccc1)C1CCCCC1 (centres undefined),inactive: 0.06%
5,COc1ccc(NP(C)(=O)Oc2ccccc2OC)cc1 (centres undefined),inactive: -0.31%
6,COc1ccc(OP(C)(=O)Nc2cccc(Br)c2)cc1 (centres undefined),inactive: 0.55%
7,Cc1c(C(c2ccc3c(c2)OCO3)c2c(C)n(C)n(-c3ccccc3)c2=O)c(=O)n(-c2ccccc2)n1C.O=[N+]([O-])c1cc([N+](=O)[O-])c(O)c([N+](=O)[O-])c1,inactive: -1.68%
8,O=[N+]([O-])c1ccc(OP2(=O)COCCO2)cc1 (centres undefined),inactive: 2.47%
9,Cc1cc(-c2cccc3ccccc23)c(C)cn1.O=[N+]([O-])c1cc([N+](=O)[O-])c(O)c([N+](=O)[O-])c1,inactive: 3.04%
10,O=[N+]([O-])c1cc([N+](=O)[O-])c(NCC2CCS(=O)(=O)C2)c([N+](=O)[O-])c1 (centres undefined),inactive: -1.13%
11,CCOP(C)(=S)SCC(=O)NC(C)(CC)C(=O)O (centres undefined),inactive: 2.53%
12,CCOP(=O)(CC)OCC,inactive: -2.16%
13,CP(=O)(Nc1ccc(SC(F)(F)F)cc1)Oc1ccc(F)cc1 (centres undefined),inactive: 7.34%
14,Cc1ccccc1NP(C)(=O)Nc1ccccc1C,inactive: 0.66%
15,O=[N+]([O-])c1cc([N+](=O)[O-])c(C(F)(F)F)c([N+](=O)[O-])c1O,inactive: 4.7%
16,CP(=O)(Nc1ccc2c(c1)OCCO2)Oc1ccccc1 (centres undefined),inactive: 3.83%
17,CP(=O)(Nc1ccccc1F)Oc1ccccc1 (centres undefined),inactive: -0.77%
18,CC(C)c1ccc(OP(C)(=O)Nc2ccc(SC(F)(F)F)cc2)cc1 (centres undefined),inactive: 2.01%
19,O=[N+]([O-])c1cc([N+](=O)[O-])c(Nc2ccc(Cl)cc2)c([N+](=O)[O-])c1,inactive: 0.84%
20,COc1ccc2c(c1O)-c1c(O)c(OC)cc3c1[C@H](C2)[N+](C)(C)CC3.O=[N+]([O-])c1cc([N+](=O)[O-])c([O-])c([N+](=O)[O-])c1[O-],inactive: 1.05%
21,O=C(OC1CN2CCC1CC2)c1ccc([N+](=O)[O-])cc1 (centres undefined),inactive: 2.92%
22,O=C(OCCN1CCN(CCOCc2ccccc2)CC1)C(O)(c1ccccc1)c1ccccc1,inactive: 0.37%
23,CCOC(=O)c1ccc(NP(C)(=O)Oc2ccc(F)cc2)cc1 (centres undefined),inactive: -1.22%
24,COc1ccc(OP(C)(=O)Nc2ccc(SC(F)(F)F)cc2)cc1 (centres undefined),inactive: 1.22%
25,CCN(CC)CCCNc1ccccc1[N+](=O)[O-].O=[N+]([O-])c1cc([N+](=O)[O-])c(O)c([N+](=O)[O-])c1,inactive: 0.5%

row,SMILES,inhibition
1,CP(=O)(Nc1ccccc1)Oc1ccc(F)cc1 (centres undefined),inactive: 0.15%
2,CCCCCOc1ccc(NP(C)(=O)Oc2ccc(Cl)cc2Cl)cc1 (centres undefined),inactive: -3.88%
3,O=[N+]([O-])c1cc([N+](=O)[O-])c(OC2CCCCC2O)c([N+](=O)[O-])c1 (centres undefined),inactive: 0.48%
4,Cc1c([N+](=O)[O-])cc([N+](=O)[O-])c(Br)c1[N+](=O)[O-],inactive: 7.84%
5,CCN(CC)CCCOC(=O)C(O)(c1ccccc1)C1CCCCC1 (centres undefined),inactive: 1.6%
6,O=C(O)c1cccc(Nc2c([N+](=O)[O-])cc([N+](=O)[O-])cc2[N+](=O)[O-])c1,inactive: 8.25%
7,CC1=NCCc2c1[nH]c1ccccc21.O=[N+]([O-])c1cc([N+](=O)[O-])c(O)c([N+](=O)[O-])c1,inactive: -3.52%
8,CCOC(=O)c1ccc(NP(C)(=O)Oc2cc(C)cc(C)c2)cc1 (centres undefined),inactive: -0.57%
9,Cc1cc(C)cc(OP(C)(=O)Nc2ccc(C)cc2C)c1 (centres undefined),inactive: 0.67%
10,COc1ccccc1OP(C)(=O)Nc1cccc(Br)c1 (centres undefined),inactive: -1.05%
11,Cc1ccc(C)c(NP(C)(=O)Oc2ccccc2)c1 (centres undefined),inactive: 4.1%
12,CP(=O)(Nc1cccc(Br)c1)Oc1ccccc1 (centres undefined),inactive: 0.67%
13,Cc1cc(C)cc(OP(C)(=O)Nc2ccccn2)c1 (centres undefined),inactive: -5.19%
14,CN(Cc1cccnc1)C(=O)COc1ccc(Cl)c(Cl)c1.O=[N+]([O-])c1cc([N+](=O)[O-])c(O)c([N+](=O)[O-])c1,inactive: -3.7%
15,O=[N+]([O-])c1cc([N+](=O)[O-])c(-n2nnc3ccccc32)c([N+](=O)[O-])c1,inactive: -3.86%
16,Cc1nc2ccc3ccccc3c2s1.O=[N+]([O-])c1cc([N+](=O)[O-])c(O)c([N+](=O)[O-])c1,inactive: 6.3%
17,O=[N+]([O-])c1cc([N+](=O)[O-])c(-c2cnn(-c3ccccc3)c2)c([N+](=O)[O-])c1,inactive: -0.7%
18,O=[N+]([O-])c1cc([N+](=O)[O-])c(Nc2nnnn2CCO)c([N+](=O)[O-])c1,inactive: 1.55%
19,CCOC(=O)C(CC)C1=NC(C)(C)Cc2ccccc21.O=[N+]([O-])c1cc([N+](=O)[O-])c(O)c([N+](=O)[O-])c1 (centres undefined),inactive: -1.88%
20,COc1ccc(-c2ccccn2)cc1.O=[N+]([O-])c1cc([N+](=O)[O-])c(O)c([N+](=O)[O-])c1,inactive: 12.2%
21,CP(=O)(Nc1ccc(SC(F)(F)F)cc1)Oc1ccccc1 (centres undefined),inactive: -3.27%
22,CCCOc1ccc(NP(C)(=O)Oc2ccc(Cl)cc2)cc1 (centres undefined),inactive: -5.59%
23,CN1CCCCC1COC(=O)C1(O)c2ccccc2CCc2ccccc21 (centres undefined),inactive: -1.52%
24,COc1ccccc1OP(C)(=O)Nc1c(C)cccc1C (centres undefined),inactive: -1.66%
25,CP(=O)(Nc1ccccc1Br)Oc1ccccc1 (centres undefined),inactive: -0.29%

row,SMILES,inhibition
1,COc1ccccc1OP(C)(=O)Nc1ccccc1 (centres undefined),inactive: -4.01%
2,CP(=S)(Nn1cnnc1)Oc1ccccc1 (centres undefined),inactive: -0.34%
3,CCc1ccc(OP(C)(=O)N2CCN(c3ccc([N+](=O)[O-])cc3)CC2)cc1 (centres undefined),inactive: -4%
4,CP(=O)(NC(=O)Nc1ccccc1)Oc1ccccc1 (centres undefined),inactive: -0.74%
5,Cc1cc(C)cc(OP(C)(=O)Nc2ccc(SC(F)(F)F)cc2)c1 (centres undefined),inactive: -2.48%
6,CP(=O)(Nc1ccc(SC(F)(F)F)cc1)Oc1ccc(Cl)cc1 (centres undefined),inactive: 1.2%
7,Cc1cccc(C)c1OP(C)(=O)Nc1ccc(SC(F)(F)F)cc1 (centres undefined),inactive: -1.74%
8,CP(=O)(Oc1ccccc1)OC(c1ccccc1)C(F)(F)F (centres undefined),inactive: 3.34%
9,CP(=O)(Nc1ccccn1)Oc1ccc(Cl)cc1 (centres undefined),inactive: -4.29%
10,O=[N+]([O-])c1cc([N+](=O)[O-])c(O)c([N+](=O)[O-])c1.c1ccc(Oc2ccncc2)cc1,inactive: 0.36%
11,CCOC(=O)c1ccc(NP(C)(=O)Oc2ccc(OC)cc2)cc1 (centres undefined),inactive: -0.57%
12,CCOP(C)(=S)SCC(=O)NC(C)C(=O)O (centres undefined),inactive: -0.45%
13,CCN(CC)CCCOC(=O)C(O)(c1ccccc1)c1ccccc1,inactive: -5.36%
14,COc1ccccc1-c1ccccn1.O=[N+]([O-])c1cc([N+](=O)[O-])c(O)c([N+](=O)[O-])c1,inactive: 2.7%
15,O=[N+]([O-])c1ccc2c(c1)C=Nc1ccccc1O2,inactive: -1.8%
16,CC(C)(C)c1ccc(OP(C)(=O)Nc2ccc(SC(F)(F)F)cc2)cc1 (centres undefined),inactive: -1.07%
17,Cc1cccc(C)c1OP(C)(N)=O (centres undefined),inactive: 0.4%
18,O=[N+]([O-])c1cc([N+](=O)[O-])c(Nc2cccnc2)c([N+](=O)[O-])c1,inactive: 4.46%
19,Cc1cc(C)cc(OP(C)(N)=O)c1 (centres undefined),inactive: 2.43%
20,COc1ccccc1OP(C)(=O)Nc1cc(Cl)ccc1C (centres undefined),inactive: 0.48%
21,COc1ccc(OP(C)(=O)Nc2cccc(F)c2)cc1 (centres undefined),inactive: -1.5%
22,COc1ccccc1OP(C)(=O)Nc1ccc(C)cc1 (centres undefined),inactive: -2.28%
23,Cc1ccc(NP(C)(=O)Oc2ccccc2)c(C)c1 (centres undefined),inactive: 1.18%
24,CCOC(=O)c1ccc(NP(C)(=O)Oc2ccccc2)cc1 (centres undefined),inactive: 3.48%
